Compound potency records, mixed from different reports. Data source: NIAID ChemDB in PubChem.

Common to all: growth or infection tests; agent: Mycobacterium avium; read-out: MIC

Blank or dashed fields: not listed here. Conditions beyond the fields shown may differ between rows.

smiles,strain,cells,read by,conditions,value
CCCCCCOc1ccccc1NC(=O)OCC[NH+]1CCCC1,MY330/88,-,-,-,62.5 µM
Cc1ccc2oc(=S)n(-c3cccc(Cl)c3)c(=S)c2c1,MY330/88,-,-,21 d,4 µM
CCCCCCCOc1ccc(NC(=O)OCC[NH+]2CCCC2)cc1,MY330/88,-,-,-,16 µM
CC[C@@]1(O)OC(=O)[C@H](C)[C@@H](O[C@H]2C[C@@](C)(OC)[C@@H](O)[C@H](C)O2)[C@H](C)[C@@H](O[C@@H]2O[C@H](C)C[C@H](N(C)C)[C@H]2O)[C@](C)(OC)C[C@@H](C)C(=O)[C@H](C)[C@@H](O)[C@]1(C)O,-,Human monocyte-derived macrophages,agar,-,32 µg/mL
O=c1oc2ccc(Br)cc2c(=O)n1-c1ccc(C(F)(F)F)cc1,CNCTC MY330/88,-,-,-,4 µM
FC(F)(F)c1ccc(-n2c(=S)oc3ccc(Cl)cc3c2=S)cc1,MY330/88,-,-,21 d,62.5 µM
Cc1ccc2oc(=O)n(-c3ccc(Cl)c(Cl)c3)c(=O)c2c1,CNCTC MY330/88,-,-,-,16 µM
CCCCCCOc1ccc(NC(=O)OCC[NH+]2CCCC2)cc1,MY330/88,-,-,-,32 µM
COc1ccc2oc(=O)n(-c3cccc(F)c3)c(=S)c2c1,MY330/88,-,-,21 d,125 µM
CCCCCCCCOc1ccc(NC(=O)OCCN2CCOCC2)cc1,MY330/88,-,-,-,16 µM
COc1ccc2oc(=S)n(-c3ccc(Br)cc3)c(=S)c2c1,MY330/88,-,-,21 d,62.5 µM
CCCCOc1cccc(NC(=O)OCCN2CCOCC2)c1,MY330/88,-,-,-,125 µM
COc1ccc2oc(=O)n(-c3ccc(F)cc3)c(=O)c2c1,CNCTC MY330/88,-,-,-,125 µM
Cc1ccc(-n2c(=O)oc3ccc(Br)cc3c2=S)cc1,MY330/88,-,-,14 d,32 µM
CCCCCCCCCOc1cccc(NC(=O)OCCN(C)C)c1,MY330/88,-,-,-,16 µM
O=c1oc2ccccc2c(=O)n1-c1ccc(F)cc1,CNCTC MY330/88,-,-,-,125 µM
CCCCCOc1ccc(NC(=O)OCCN2CCCCCC2)cc1,MY330/88,-,-,-,16 µM
Cc1ccc2c(=O)n(-c3ccc(F)cc3)c(=O)oc2c1,CNCTC MY330/88,-,-,-,62.5 µM
Fc1ccc2oc(=S)n(-c3ccc(Cl)c(Cl)c3)c(=S)c2c1,MY330/88,-,-,14 d,16 µM
O=c1oc2ccc(Br)cc2c(=O)n1-c1ccc(Cl)c(Cl)c1,CNCTC MY330/88,-,-,-,16 µM
O=c1oc2ccc(Br)cc2c(=S)n1-c1ccccc1,MY330/88,-,-,14 d,8 µM

For reference, 3 entries again:

smiles,strain,cells,read by,conditions,value
O=c1oc2ccc(Br)cc2c(=S)n1-c1ccccc1,MY330/88,-,-,14 d,8 µM
FC(F)(F)c1ccc(-n2c(=S)oc3ccc(Cl)cc3c2=S)cc1,MY330/88,-,-,21 d,62.5 µM
Cc1ccc2oc(=O)n(-c3ccc(Cl)c(Cl)c3)c(=O)c2c1,CNCTC MY330/88,-,-,-,16 µM